Measured data: PubChem BioAssay AID504761 (Drosophila RNAi Screening Center, 2011)

Assay: 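Insect host genes that dengue virus relies on to spread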 (primary screen)
System: D.Mel-2 cells from Drosophila
Knock-down reagent: long dsRNA against Drosophila genes
Treatment: infection with dengue virus type 2; dose and infection time not stated
Detection: 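Per well on two replicate plates, imaging gave the percent of cells positive for viral envelope protein, ranked by infection, and a nuclear count of cells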
Direction: infection score: higher = more virus-infected cells; cell count: higher = more cells in the well
Call rule: 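Low infection ranks in the two replicates (chance level up to 0.065) followed by a retest with a 1.5-fold or larger significant decrease, p below 0.05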
Meaning of the calls: active = confirmed: knock-down lowers infection; inactive = not picked or not confirmed
In all, the deposit lists about 22,000 reagents; shown is a random part of those that have a named target and a result. Of all reagents, 116 (0.52%) were called active. 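Calls depend on retest data that are not deposited; infection was ranked per plate without normalising between plates; the unit of the infection score is not given.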 The raw values are shown without normalisation. Reagents against one gene are numbered here. Not all columns of the deposit are shown. Reagent sequences are not shown. Not given: the amount of reagent, the time to read-out.

crn #1 | infection score, replicate 1 = 1.04; cell count, replicate 1 = 865; Call = inactive
crn #2 | infection score, replicate 1 = 1.25; cell count, replicate 1 = 5286; Call = inactive
crn #3 | infection score, replicate 1 = 5.82; cell count, replicate 1 = 1976; Call = inactive
CG8665 | cell count, replicate 1 = 379; Call = inactive
CG17191 #1 | infection score, replicate 1 = 2.14; cell count, replicate 1 = 6536; Call = inactive
CG17191 #2 | infection score, replicate 1 = 1.22; cell count, replicate 1 = 6054; Call = inactive

Records listed so far whose target name begins with C or c (6):
crn #1 | infection score, replicate 1 = 1.04; cell count, replicate 1 = 865; Call = inactive
crn #2 | infection score, replicate 1 = 1.25; cell count, replicate 1 = 5286; Call = inactive
crn #3 | infection score, replicate 1 = 5.82; cell count, replicate 1 = 1976; Call = inactive
CG8665 | cell count, replicate 1 = 379; Call = inactive
CG17191 #1 | infection score, replicate 1 = 2.14; cell count, replicate 1 = 6536; Call = inactive
CG17191 #2 | infection score, replicate 1 = 1.22; cell count, replicate 1 = 6054; Call = inactive

Continued.
CG13871 #1 | infection score, replicate 1 = 1.46; cell count, replicate 1 = 6034; Call = inactive
CG13871 #2 | infection score, replicate 1 = 1.86; cell count, replicate 1 = 6894; Call = inactive
ND-23 | infection score, replicate 1 = 25.3; cell count, replicate 1 = 5339; Call = inactive
Atac2 | infection score, replicate 1 = 6.6; cell count, replicate 1 = 6412; Call = inactive
RpL23 | infection score, replicate 1 = 19.6; cell count, replicate 1 = 4805; Call = inactive
CG15126 | infection score, replicate 1 = 3.37; cell count, replicate 1 = 5497; Call = inactive
